Measured values from several laboratories, pooled; numbers as filed in NIAID ChemDB.

Percent inhibition refers to the dose given; in toxicity tests it is the harm to the cells.

{"compound": "Nc1c(C(=O)NCc2ccccc2)c2nc3c(C(=O)NCc4ccccc4)ccc(Br)c3oc-2c(Br)c1=O", "strain or isolate": "H37Rv", "dose": "12.5 µg/mL", "endpoint": "inhibition", "read by": "BACTEC", "test": "culture", "organism": "Mycobacterium tuberculosis", "value": "20%"}
{"compound": "Cc1ccc(C(=O)O)cc1-n1c(-c2ccc(Cl)cc2)nnc1-c1ccc(Cl)cc1", "strain or isolate": "H37Rv", "endpoint": "MIC", "test": "culture", "organism": "Mycobacterium tuberculosis", "value": ">100 µg/mL"}
{"compound": "COC(=O)c1ccc(C(=O)OC)c2nc3cc(C)ccc3nc12", "strain or isolate": "H37Rv", "dose": "12.5 µg/mL", "endpoint": "inhibition", "read by": "BACTEC", "test": "culture", "organism": "Mycobacterium tuberculosis", "value": "7%"}
{"compound": "CC1=C(O)C(=O)CC1", "strain or isolate": "H37Rv", "endpoint": "MIC", "test": "culture", "organism": "Mycobacterium tuberculosis", "value": "50 µg/mL"}
{"compound": "CC(=O)c1ccc(N2CCN(c3cncc(-c4ccccc4Oc4ccccc4)n3)CC2)cc1", "target": "UL97 kinase", "dose": "10 µM", "endpoint": "inhibition", "test": "target", "organism": "Cytomegalovirus", "value": ">15%"}
{"compound": "O=C(NCOC(c1ccccc1)c1ccccc1)c1cccnc1", "strain or isolate": "H37Rv", "endpoint": "MIC", "read by": "BACTEC", "test": "culture", "organism": "Mycobacterium tuberculosis", "value": "≥12.5 µg/mL"}
{"compound": "COc1ccc(C(C)C)cc1-c1cncc(N2CCN(c3ccncc3)CC2)n1", "target": "UL97 kinase", "dose": "10 µM", "endpoint": "inhibition", "test": "target", "organism": "Cytomegalovirus", "value": ">15%"}
{"compound": "Fc1ccc(N2CCCCC2)c(NC(=S)c2ccncc2)c1", "target": "Erk1", "dose": "10 µM", "endpoint": "inhibition", "read by": "kinase activity", "test": "host protein", "value": "-2.1%"}
{"compound": "CN1C(=O)C=C(N)C1=O", "strain or isolate": "H37Rv", "dose": "12.8 µg/mL", "endpoint": "inhibition", "read by": "BACTEC", "test": "culture", "organism": "Mycobacterium tuberculosis", "value": "12%"}
{"compound": "N#CC(c1ccccc1)C(c1ccccc1)C(C#N)c1ccc([N+](=O)[O-])cc1", "strain or isolate": "H37Rv", "endpoint": "MIC", "test": "culture", "organism": "Mycobacterium tuberculosis", "value": ">100 µg/mL"}
{"compound": "CSc1ccc(-c2cncc(N3CCN(c4ccccc4F)CC3)n2)cc1", "target": "UL97 kinase", "endpoint": "IC50", "test": "target", "organism": "Cytomegalovirus", "value": "<10 µM"}
{"compound": "CC1CC(O)C(=O)C(O[C@@H]2C[C@@H]3CC[C@@H]4[C@H](CC[C@]5(C)[C@@H](C6=CC(=O)OC6)CC[C@]45O)[C@@]3(C=O)CC2O)O1", "strain or isolate": "H37Rv", "endpoint": "MIC", "read by": "BACTEC", "test": "culture", "organism": "Mycobacterium tuberculosis", "value": "≥12.8 µg/mL"}
{"compound": "FC(F)(F)c1cccc(N2CCN(c3cncc(-c4cc5ccccc5s4)n3)CC2)c1", "target": "UL97 kinase", "endpoint": "IC50", "test": "target", "organism": "Cytomegalovirus", "value": "<10 µM"}
{"compound": "NC(=O)C(O)c1ccccc1", "strain or isolate": "H37Rv", "endpoint": "MIC", "test": "culture", "organism": "Mycobacterium tuberculosis", "value": ">100 µg/mL"}
{"compound": "N#Cc1ccccc1N1CCN(c2cncc(-c3ccc(Cl)cc3)n2)CC1", "target": "UL97 kinase", "endpoint": "IC50", "test": "target", "organism": "Cytomegalovirus", "value": "<10 µM"}
{"compound": "O=C(O)/C=C1\\OC(=O)c2ccccc21", "strain or isolate": "H37Rv", "endpoint": "MIC", "test": "culture", "organism": "Mycobacterium tuberculosis", "value": ">100 µg/mL"}
{"compound": "S=C(S)N1CCCCCC1", "strain or isolate": "H37Rv", "endpoint": "MIC", "test": "culture", "organism": "Mycobacterium tuberculosis", "cell line": "VERO", "value": "0.39 µg/mL"}
{"compound": "Nc1nc(Cl)cc(Cl)n1", "strain or isolate": "H37Rv", "endpoint": "MIC", "test": "culture", "organism": "Mycobacterium tuberculosis", "value": ">100 µg/mL"}
{"compound": "CCOC(=O)NC1C2CC(=O)C(O2)C1OCc1ccccc1", "strain or isolate": "H37Rv", "endpoint": "MIC bound", "read by": "BACTEC", "test": "culture", "organism": "Mycobacterium tuberculosis", "value": ">12.5 µg/mL"}
{"compound": "COc1ccc(-c2cncc(N3CCC(c4ccccc4)CC3)n2)cc1F", "target": "UL97 kinase", "endpoint": "IC50", "test": "target", "organism": "Cytomegalovirus", "value": "<100 µM"}
{"compound": "NC(=O)c1ccc(-c2ccccc2)cc1N", "strain or isolate": "H37Rv", "endpoint": "MIC", "test": "culture", "organism": "Mycobacterium tuberculosis", "value": ">100 µg/mL"}

The first 3 rows once more:

compound | strain or isolate | target | dose | endpoint | read by | test | organism | cell line | value
Nc1c(C(=O)NCc2ccccc2)c2nc3c(C(=O)NCc4ccccc4)ccc(Br)c3oc-2c(Br)c1=O | H37Rv |  | 12.5 µg/mL | inhibition | BACTEC | culture | Mycobacterium tuberculosis |  | 20%
Cc1ccc(C(=O)O)cc1-n1c(-c2ccc(Cl)cc2)nnc1-c1ccc(Cl)cc1 | H37Rv |  |  | MIC |  | culture | Mycobacterium tuberculosis |  | >100 µg/mL
COC(=O)c1ccc(C(=O)OC)c2nc3cc(C)ccc3nc12 | H37Rv |  | 12.5 µg/mL | inhibition | BACTEC | culture | Mycobacterium tuberculosis |  | 7%

Blank or dashed fields: not listed here. ICn: concentration for n% inhibition. Rows are shuffled and stem from different studies. MIC bound: limit read from a one-dose screen.